Anti-infective test results gathered from many reports (values: NIAID ChemDB through PubChem).

Common to all: tests in culture; organism: Mycobacterium tuberculosis

MIC bound comes from a single tested concentration. ECn is the concentration giving n% inhibition of infection, replication or growth. An empty or dashed field is not shown. Inhibition is in % at the dose shown (toxicity tests: loss of growth or viability). Rows are shuffled and stem from different studies. A number after MIC or MFC names an inhibition level or a share of isolates. Fold resistance has wild type as its base.

SMILES,dose,strain,measure,mutations,read by,value
CC(C)C(=O)c1cn(-c2ccccc2)nn1,12.5 µg/mL,H37Rv,inhibition,,,50%
CCOC(=O)CCCc1cc(=O)c2c(C)c3[nH]c4ccc(Cl)cc4c3c(C)c2[nH]1,,H37Rv,MIC bound,,resazurin,>6.25 µg/mL
COc1c(O)cc2oc3cc(O)c(CCC(C)C)c(O)c3c(=O)c2c1CCC(C)C,,M27,MIC,MDR,resazurin,3.12 µg/mL
COc1ccc2c(c1)n([O-])c1ccccc1[n+]2=O,,RMP-R,MIC,,,0.8 µg/mL
NC(=O)c1cnccn1,,T494/NIACIN+,MIC,,,>2048 µg/mL
COc1ccc(-c2noc(C3=CC4(CCN(CC5CCCO5)CC4)c4ccccc43)n2)cc1,,TB366,MIC,Spiroindene-resistant,turbidity,3 µM
O=C(c1ccccc1)c1cn(-c2ccc(Cl)cc2)nn1,12.5 µg/mL,H37Rv,inhibition,,,0%
CCCCCCCCOc1c(C(C)=O)cc([N+](=O)[O-])c2nccc(CC)c12,,H37Rv,MIC,,,>6.25 µg/mL
Cc1ccc(-c2noc(C3=CC4(CCN(CC5CCCO5)CC4)c4ccccc43)n2)cn1,,TB365,MIC,Spiroindene-resistant,turbidity,15.5 µM
O=C(c1cn(-c2ccccc2)nn1)c1cccc2ccccc12,,H37Rv,MIC,,,>12.5 µg/mL
CCN(CC)CCNc1ccc([N+](=O)[O-])c2sc3cc(Cl)ccc3c(=O)c12,,H37Rv,MIC,,BACTEC,1.6 µg/mL
CC(=O)Nc1ccc(OCC(=O)NN2C(=O)CSC2c2ccco2)cc1,,H37Rv,EC50,,,>12.5 µg/mL
CCOC(=O)c1cc(-c2ccccc2)sc1NC(C)=O,,H37Rv,MIC,,resazurin,>100 µg/mL
O=[N+]([O-])c1cccc2c(C3CCCC3)cc(C3CCCC3)nc12,,Ethambutol-resistant,MIC,,,25 µg/mL
Cc1cccc(C)c1Nc1nc(-c2cnccn2)cs1,,H37Rv,MIC,,visual reading,20 µM
CC[C@H](C)c1occ2c(O)c(C(=O)O)c(=O)cc-2c1C,,H37Rv,MIC bound,,BACTEC,>12.5 µg/mL
CCc1nc2ccc(C)cc2n1CCCCSc1ccc(OC)cc1,,H37Rv,fold resistance,QcrB M342T,turbidity / fluorescence,10
Cc1cccc(C)c1Nc1nnc(-c2ccccn2)o1,,H37Rv,MIC,,visual reading,>20 µM
CC(=O)Nc1ccc(OCC(=O)NN2C(=O)CSC2c2ccccc2Cl)cc1,12.5 µg/mL,H37Rv,inhibition,,,0%
C=C(C)/C=C/[C@]12C[C@H](C)[C@H]3CC[C@](C)(NC=O)[C@@H](CC[C@H]1C)[C@@H]32,128 µg/mL,H37Rv,inhibition,,,99%
CC(C)(C)c1ccc(C(=O)Nc2nc(-c3ccccn3)cs2)cc1,,H37Rv,MIC,,visual reading,0.7 µM
O=C1Nc2ccccc2C12CCN(Cc1ccccc1)CC2,,H37Rv,MIC,,resazurin,>100 µM
CCOC(=O)c1c(NC(=O)c2c(F)c(F)c(F)c(F)c2F)sc2c1CCNC2=O,,,EC50,,low oxygen,1.3 µM
Nc1cccc(C(=O)Nc2ccc3c(O)c(N=Nc4ccc(N=Nc5ccc(S(=O)(=O)O)cc5)cc4)c(S(=O)(=O)O)cc3c2)c1,12.5 µg/mL,H37Rv,inhibition,,BACTEC,19%
CO[C@H]1/C=C/O[C@@]2(C)Oc3c(C)c(O)c4c(O)c(c(/C=N/N5CCN(C/C=C/c6ccccc6)CC5)c(O)c4c3C2=O)NC(=O)/C(C)=C\C=C\[C@H](C)[C@H](O)[C@@H](C)[C@@H](O)[C@@H](C)[C@H](OC(C)=O)[C@@H]1C,,2237,MBC,,,0.5 µg/mL
O=[N+]([O-])c1cccc2ccc(C3CCCCC3)nc12,,Isoniazid-resistant,MIC,,,25 µg/mL
CC(C)(C)c1ccc(CN2CCC3(CC2)C(=O)N(CC2CC2)c2ccccc23)cc1,,TB333,MIC,Spiroindene-resistant,turbidity,0.4 µM
CCOC(=O)c1cc(-c2ccccc2)sc1NC(=O)c1c(F)c(F)c(F)c(F)c1F,,H37Rv,MIC,,resazurin,>100 µg/mL
COc1cc(C2SCC(=O)N2NC(=O)COc2ccc(NC(C)=O)cc2)ccc1O,12.5 µg/mL,H37Rv,inhibition,,,0%
CCOC(=O)c1c(NC(=O)c2ccccc2)sc2c1CCCC2,,H37Rv,MIC,,resazurin,>200 µg/mL
COc1ccc(-c2noc(C3=CC4(CCN(CC(N)=O)CC4)c4ccccc43)n2)cc1,,H37Rv,MIC,,resazurin,50 µM
CNCCSS(=O)(=O)CCNC,12.5 µg/mL,H37Rv,inhibition,,BACTEC,0%
O=C(c1ccc(Br)cc1)c1cn(-c2ccc(Cl)cc2)nn1,12.5 µg/mL,H37Rv,inhibition,,,0%
C=CCOc1cc2oc3cc(O)c(CCC(C)C)c(O)c3c(=O)c2c(CCC(C)C)c1OC,,H37Ra,MIC,,resazurin,0.78 µg/mL
COc1ccc(-c2noc(C3=CC4(CCN(C(=O)[C@H]5CCCN5C)CC4)c4ccccc43)n2)cc1,,H37Rv,MIC,,resazurin,50 µM
O=C(c1cn(-c2cccc3ccccc23)nn1)c1cccs1,,H37Rv,MIC,,,>12.5 µg/mL
Cc1cn(C2CC(COCc3ccccc3)N(CCO[Si](C)(C)C(C)(C)C)O2)c(=O)[nH]c1=O,,H37Rv,MIC bound,,resazurin,>6.25 µg/mL
NNC(=O)c1ccncc1,,H37Rv,MIC,,,0.12 µg/mL
O=C(c1cn(-c2cccc3ccccc23)nn1)c1ccc(Cl)cc1Cl,12.5 µg/mL,H37Rv,inhibition,,,0%
CN[C@@H]1[C@H](O[C@H]2[C@H](O[C@H]3[C@H](O)[C@@H](O)[C@H](N=C(N)N)[C@@H](O)[C@@H]3N=C(N)N)O[C@@H](C)[C@]2(O)C=O)O[C@@H](CO)[C@H](O)[C@H]1O,,M5,MIC,MDR,resazurin,>8 µg/mL
CO[C@H]1/C=C/O[C@@]2(C)Oc3c(C)c(O)c4c(O)c(c5c(c4c3C2=O)NC2(CCN(CC(C)C)CC2)N=5)=NC(=O)/C(C)=C\C=C\[C@H](C)[C@H](O)[C@@H](C)[C@@H](O)[C@@H](C)[C@H](OC(C)=O)[C@@H]1C,,Strain 62 (M515V),MIC,,,0.015 µg/mL
CC(=O)c1cn[nH]n1,,H37Rv,MIC,,,>12.5 µg/mL
COc1cc(Cl)c2c3c(c(C(=O)c4ccccc4)oc13)CCC2,12.5 µg/mL,H37Rv,inhibition,,BACTEC,-23%
CCN1CCc2c(sc(NC(=O)c3c(F)c(F)c(F)c(F)c3F)c2C#N)C1,,ATCC35838,EC50,,turbidity,6.3 µM
N=C(N)N.O=S(=O)(O)[O][Al]1[O]S(=O)(=O)[O]1,,H37Rv,MIC bound,,BACTEC,>12.5 µg/mL
CN[C@@H]1[C@H](O[C@H]2[C@H](O[C@H]3[C@H](O)[C@@H](O)[C@H](N=C(N)N)[C@@H](O)[C@@H]3N=C(N)N)O[C@@H](C)[C@]2(O)C=O)O[C@@H](CO)[C@H](O)[C@H]1O,,912253,MIC,Isoniazid-resistant,resazurin,0.5 µM
C[C@H]1COc2c(N3CCN(C)CC3)c(F)cc3c(=O)c(C(=O)O)cn1c23,,3183-5,MIC,,,0.25 µg/mL
COc1ccccc1-c1csc(Nc2ccccc2C(F)(F)F)n1,,H37Rv,MIC,,visual reading,>20 µM
COc1ccc(C2SC(C)C(=O)N2NC(=O)COc2ccc(NC(C)=O)cc2)cc1,,H37Rv,EC50,,,>12.5 µg/mL
Cc1nc(C(N)=O)c(=O)[nH]c1C,,H37Rv,MIC bound,,BACTEC,>12.5 µg/mL
CC(=O)Nc1ccc(OCC(=O)NN2C(=O)C(C)SC2/C=C/c2ccccc2)cc1,12.5 µg/mL,H37Rv,inhibition,,,18%
N#Cc1c(NC(=O)c2c(F)c(F)c(F)c(F)c2F)sc2c1CCOC2,,H37Rv,EC50,katG Y155 truncation mutant,turbidity,5.6 µM
Cc1cc(O)c2c(c1)C(=O)c1c(c(O)cc(O)c1-c1c(O)cc(O)c3c1C(=O)c1cc(C)cc(O)c1C3=O)C2=O,,H37Rv,MIC bound,,BACTEC,>12.5 µg/mL
CO[C@H]1/C=C/O[C@@]2(C)Oc3c(C)c(O)c4c(O)c(c(/C=N/N5CCN(C)CC5)c(O)c4c3C2=O)NC(=O)/C(C)=C\C=C\[C@H](C)[C@H](O)[C@@H](C)[C@@H](O)[C@@H](C)[C@H](OC(C)=O)[C@@H]1C,,M-4,MIC,MDR,resazurin,>2 µg/mL
Nc1c(C(=O)NCc2ccccc2)c2nc3c(C(=O)NCc4ccccc4)cccc3oc-2cc1=O,12.5 µg/mL,H37Rv,inhibition,,BACTEC,-6%
CCc1nc2ccc(C)cc2n1CCCCNc1ccc(C)cc1,,H37Rv,fold resistance,Rv1339 V90M,turbidity / fluorescence,0.8
NC[C@@H]1O[C@H](O[C@H]2[C@@H](O)[C@H](O[C@@H]3[C@@H](O)[C@H](N)C[C@H](N)[C@H]3O[C@H]3O[C@H](CO)[C@@H](O)[C@H](O)[C@H]3N)O[C@@H]2CO)[C@H](N)[C@@H](O)[C@@H]1O,,MTB25 (S),MIC,,,0.75 µg/mL
O=C(O)C[C@@H]1C(=O)O[C@H]2[C@@H]3OC(=O)c4cc(O)c(O)c(O)c4-c4c(cc(O)c(O)c4O)C(=O)OC[C@H]2O[C@@H](OC(=O)c2cc(O)c(O)c(O)c2)[C@@H]3OC(=O)c2cc(O)c(O)c3c2[C@H]1[C@H](O)C(=O)O3,12.5 µg/mL,H37Rv,inhibition,,BACTEC,18%
CCCCCCCOc1c(C(C)=O)cc([N+](=O)[O-])c2nccc(CC)c12,,Isoniazid-resistant,MIC,,,6.25 µg/mL
O=C(O)c1cnc(Cl)cn1,,ATCC35801,MIC,,,64 µg/mL
CCCCCCCCOc1c(C(C)=O)cc(N)c2nccc(CC)c12,,Isoniazid-resistant,MIC,,,6.25 µg/mL
CCNC(=O)c1c(NC(=O)c2c(F)c(F)c(F)c(F)c2F)sc2c1CCN(CC)C2,,ATCC 35822,EC50,,turbidity,3.5 µM
CO[C@H]1/C=C/O[C@@]2(C)Oc3c(C)c(O)c4c(O)c(c(/C=N/N5CCN(C6CCCC6)CC5)c(O)c4c3C2=O)NC(=O)/C(C)=C\C=C\[C@H](C)[C@H](O)[C@@H](C)[C@@H](O)[C@@H](C)[C@H](OC(C)=O)[C@@H]1C,,Isolate 900216 drug-susceptible,MIC,,,0.063 µg/mL
COc1c(OC(C)=O)cc2oc3cc(O)c(CCC(C)C)c(O)c3c(=O)c2c1CCC(C)C,,H37Ra,MIC,,resazurin,6.25 µg/mL
O=c1[nH]c(=O)c2c([nH]1)oc1ccccc12,12.5 µg/mL,H37Rv,inhibition,,BACTEC,-4%
NNC(=O)c1ccncc1,,PR1282,MIC,,,0.04 µg/mL
O=C(O)c1c(O)ccc(N=Nc2ccc(N=Nc3ccc4c(S(=O)(=O)O)cccc4c3O)c3ccccc23)c1O,,H37Rv,MIC,,BACTEC,≥128 µg/mL
CC(=O)c1csc(Nc2ccccn2)n1,,H37Rv,MIC,,visual reading,>20 µM
C/C(=N/NC(=S)NCc1ccccc1)c1nccnc1C,,H37Rv,MIC bound,,BACTEC,≤12.5 µg/mL
CCc1nc2ccccc2n1CCCCNc1ccc(-c2ccccn2)cc1,,H37Rv,MIC90,QcrB M342T,turbidity / fluorescence,22 µM
O=C1C(=O)c2ccccc2C(O)=C1C(C1=C(O)c2ccccc2C(=O)C1=O)c1ccc(C(C2=C(O)c3ccccc3C(=O)C2=O)C2=C(O)c3ccccc3C(=O)C2=O)cc1,12.8 µg/mL,H37Rv,inhibition,,BACTEC,73%
CCCCCOc1c(C(C)=O)cc(N)c2nccc(CC)c12,,H37Rv,MIC,,,6.25 µg/mL
COc1c2ccoc2c(OC)c2oc(=O)ccc12,,H37Rv,MIC,,BACTEC,≥12.5 µg/mL
CCCOc1cc2oc3cc(O)c(CCC(C)C)c(O)c3c(=O)c2c(CCC(C)C)c1C(C)=O,,H37Ra,MIC,,resazurin,0.78 µg/mL
Cc1ccc(NC(=O)c2cc(S(=O)(=O)N3CCNNC3=O)c(S)cc2Cl)cc1,6.25 µg/mL,H37Rv,inhibition,,resazurin,2%
CCc1nc2ccccc2n1CCCCOc1cccc(C)c1,,H37Rv,MIC90,Rv1339 V90M,turbidity / fluorescence,6.2 µM
CC(=O)NNc1nc(C)c(C(=O)C=Cc2ccc(NC(C)=O)cc2)s1,6.25 µg/mL,H37Rv,inhibition,,resazurin,18%
O=C(c1cn(-c2ccccc2)nn1)c1ccc(Br)cc1Br,,H37Rv,MIC,,,>12.5 µg/mL

6 of the rows above, restated:

SMILES	dose	strain	measure	mutations	read by	value
COc1c(OC(C)=O)cc2oc3cc(O)c(CCC(C)C)c(O)c3c(=O)c2c1CCC(C)C		H37Ra	MIC		resazurin	6.25 µg/mL
CC(=O)NNc1nc(C)c(C(=O)C=Cc2ccc(NC(C)=O)cc2)s1	6.25 µg/mL	H37Rv	inhibition		resazurin	18%
O=c1[nH]c(=O)c2c([nH]1)oc1ccccc12	12.5 µg/mL	H37Rv	inhibition		BACTEC	-4%
CCc1nc2ccc(C)cc2n1CCCCSc1ccc(OC)cc1		H37Rv	fold resistance	QcrB M342T	turbidity / fluorescence	10
CC(C)(C)c1ccc(C(=O)Nc2nc(-c3ccccn3)cs2)cc1		H37Rv	MIC		visual reading	0.7 µM
C[C@H]1COc2c(N3CCN(C)CC3)c(F)cc3c(=O)c(C(=O)O)cn1c23		3183-5	MIC			0.25 µg/mL